The test system of the series is IHF alpha subunit (IHFα) + IHF beta subunit (IHFβ). Briefly: EMSA. The settings on record: calf thymus DNA 0.5 ug, 50 mM Tris-HCl pH 8.0, 100 mM KCl, 1 mM DTT, 2.5 mM EDTA, 5% glycerol, 0.5 ug calf thymus DNA, 5 ug/ml BSA, 20 ng probe in 20 ul, room temperature 30 min, 6% native PAGE, recombinant protein, label: biotin, probe letters rebuilt from the primers and the genome. Background: A gel shift assay detects complexes by their altered migration in electrophoresis.

The exact form of at least one protein or probe is not confirmed.

Regarding “GAGTTTGACCTTCGATAGAGATATAACATGGAGTTGGCATTGCTCATTCCTTTCTAACTGGTTGTTTATCAGGCAACGGGTTAAGACAACCTTTGCCATTCGATAAAACGTTCGTGATGTAAGTGCGCTCAGCGCGAATTCAGTGAGTAAGGGAGCAAAGTCGATGCCACTTTGGCATTCATTTAAAATCAATTAGTTATATTTAAAACCTTGCCATTAGAGCAACAAACTGCCTTTGAACAAGCAAGATCTTGCTTGTCGGGCAAGGTTCACGTCGCTGGTTCAGGCCACTTGTTAATCTGTAGCACGTTGGTACACTTCTCTCTCATTTTTCGTCAAGGAAGGCTATTCTCA (double strand) [probe-tssD2a (wild-type tssD2_a promoter)]”, the binding result (completely shifted at 590 nM IHF) is listed as “binds”. For “TTAGGAGCTACACTTCCTTCTTTAGACATATAACGTCTCCAAATACCTATGCCAGTCGTTGTCAATGAAATAGTTGTGTAAATATCTGATTGATAATACACATTAGAAATATCTTAATTATCTTATTTGATTTTTAGTAAATATAACTTCTTGAAATTGATTAATTCACCCGACTTCTCGTCAGACAAATATAACCATTGAATAATACAAGTTAAACTTACATATAAACTTTTATTTATAAAACTATGAATAAAGAGACAAGCCAATCTCCCTATTCCTGATATTCGAAAGCGAGCATATTCTATTCATTTAATAATGTTTTGTTGCACAAAAATCACAAGAATATGATCTTCACCCCAAAAACGATTACTTTTATCACACTTATTATCTATCGCTAATATTGAAATAAACTAAATATCCCAGAACAGATCATGGT (double strand) [VflT6SS2 major cluster promoter probe]”, the binding result (two shifted bands with increasing IHF) was “binds”.

These data come from publication PMC5963220.
